Measured values taken from patent publication US9474793B2 (The United States of America, as represented by the …, priority 2005, dated 2016).
Plain letter strings leave the end groups untold.

Assay: general procedure: Fmoc solid-phase peptide synthesis
Details: whole synthesis, reverse phase HPLC

For VLYQYVDDV, the “final HPLC purity” value was over 97%.
